Measured values reported in US20160304570A1, “Potent and selective inhibitors of nav1.3 and nav1.7” (published 2016).

biological target: human Nav1.7 (human), Q15858; test: cell-based or functional assay

Point of comparison: DCLGFMRKCYPDNDKCCRPNLVCSRTHKWCKYVF (modifications not checked) [[Tyr10]GpTx-1(1-34)], IWQ Use Nav1.7 (µM) [IC50, IonWorks Quattro electrophysiology] 0.14 µM. Against it:
- DCLGFMRKCDPDNDKCCRPNLVCSRTHKWCKYVF (modifications not checked) [[Asp10]GpTx-1(1-34)] — higher, 0.22 µM
- DCLGFMRKCFPDNDKCCRPNLVCSRTHKWCKYVF (modifications not checked) [[Phe10]GpTx-1(1-34)] — lower, 0.11 µM
- DCLGFMRKCVPDNDKCCRPNLVCSRTHKWCKYVF (modifications not checked) [[Val10]GpTx-1(1-34)] — lower, 0.1 µM
- DCLGFMRKCMPDNDKCCRPNLVCSRTHKWCKYVF (modifications not checked) [[Met10]GpTx-1(1-34)] — lower, 0.09 µM
- DCLGFMRKCLPDNDKCCRPNLVCSRTHKWCKYVF (modifications not checked) [[Leu10]GpTx-1(1-34)] — lower, 0.13 µM
- DCLGFMRKCHPDNDKCCRPNLVCSRTHKWCKYVF (modifications not checked) [[His10]GpTx-1(1-34)] — lower, 0.05 µM
- DCLGFMRKCTPDNDKCCRPNLVCSRTHKWCKYVF (modifications not checked) [[Thr10]GpTx-1(1-34)] — lower, 0.1 µM
- DCLGFMRKCPPDNDKCCRPNLVCSRTHKWCKYVF (modifications not checked) [[Pro10]GpTx-1(1-34)] — higher, 0.4 µM

biological target: human Nav1.7 voltage-gated sodium channel (human), Q15858; test: cell-based or functional assay

DCLGFMRKCDPDNDKCCRPNLVCSRTHKWCKYVF (modifications not checked) [[Asp10]GpTx-1(1-34)] was tested, and the Nav1.7 Use IC50 (µM), PatchXpress electrophysiology was 0.003 µM.

biological target: human Nav1.5 (human), Q14524; test: cell-based or functional assay

Point of comparison: DCLGFMRKCMPDNDKCCRPNLVCSRTHKWCKYVF (modifications not checked) [[Met10]GpTx-1(1-34)], IWQ Use Nav1.5 (µM) [IC50, IonWorks Quattro electrophysiology] 3.38 µM. Against it:
- DCLGFMRKCDPDNDKCCRPNLVCSRTHKWCKYVF (modifications not checked) [[Asp10]GpTx-1(1-34)] — higher, 11.3 µM
- DCLGFMRKCFPDNDKCCRPNLVCSRTHKWCKYVF (modifications not checked) [[Phe10]GpTx-1(1-34)] — higher, 5.33 µM
- DCLGFMRKCVPDNDKCCRPNLVCSRTHKWCKYVF (modifications not checked) [[Val10]GpTx-1(1-34)] — higher, 7.88 µM
- DCLGFMRKCLPDNDKCCRPNLVCSRTHKWCKYVF (modifications not checked) [[Leu10]GpTx-1(1-34)] — higher, 8.13 µM
- DCLGFMRKCYPDNDKCCRPNLVCSRTHKWCKYVF (modifications not checked) [[Tyr10]GpTx-1(1-34)] — higher, 5.41 µM
- DCLGFMRKCHPDNDKCCRPNLVCSRTHKWCKYVF (modifications not checked) [[His10]GpTx-1(1-34)] — higher, 6.36 µM
- DCLGFMRKCTPDNDKCCRPNLVCSRTHKWCKYVF (modifications not checked) [[Thr10]GpTx-1(1-34)] — higher, > 5 µM
- DCLGFMRKCPPDNDKCCRPNLVCSRTHKWCKYVF (modifications not checked) [[Pro10]GpTx-1(1-34)] — higher, > 5 µM

biological target: human Nav1.3 (human), Q9NY46; test: cell-based or functional assay

Point of comparison: DCLGFMRKCPPDNDKCCRPNLVCSRTHKWCKYVF (modifications not checked) [[Pro10]GpTx-1(1-34)], IWQ Use Nav1.3 (µM) [IC50, IonWorks Quattro electrophysiology] 0.24 µM. Against it:
- DCLGFMRKCDPDNDKCCRPNLVCSRTHKWCKYVF (modifications not checked) [[Asp10]GpTx-1(1-34)] — lower, 0.16 µM
- DCLGFMRKCFPDNDKCCRPNLVCSRTHKWCKYVF (modifications not checked) [[Phe10]GpTx-1(1-34)] — lower, 0.08 µM
- DCLGFMRKCVPDNDKCCRPNLVCSRTHKWCKYVF (modifications not checked) [[Val10]GpTx-1(1-34)] — lower, 0.09 µM
- DCLGFMRKCMPDNDKCCRPNLVCSRTHKWCKYVF (modifications not checked) [[Met10]GpTx-1(1-34)] — lower, 0.1 µM
- DCLGFMRKCLPDNDKCCRPNLVCSRTHKWCKYVF (modifications not checked) [[Leu10]GpTx-1(1-34)] — lower, 0.08 µM
- DCLGFMRKCYPDNDKCCRPNLVCSRTHKWCKYVF (modifications not checked) [[Tyr10]GpTx-1(1-34)] — lower, 0.07 µM
- DCLGFMRKCHPDNDKCCRPNLVCSRTHKWCKYVF (modifications not checked) [[His10]GpTx-1(1-34)] — lower, 0.03 µM
- DCLGFMRKCTPDNDKCCRPNLVCSRTHKWCKYVF (modifications not checked) [[Thr10]GpTx-1(1-34)] — lower, 0.06 µM
